Results taken from patent US20120301493A1 (UNIVERSIDADE DE SANTIAGO DE COMPOSTELA, published 2012).

B1: muNS-Mi, region 448-635 of avian reovirus S1133 muNS protein (other)
chain: PAALLSKIADLQRANRELSLKLVDVQPAREDHLLAYLNEHVCVNAKDHEKGLLARCNVSGDSISSILGQRMKNRERFETRLRHEASAEWEPRVEALNQELAKARVEQQDMMTQSLQYLNERDELLQEVDELKRELTTLRSANVRLNADNHRMSRATRVGDAFVSDVEPLPSGIPGESKPSMEELVDDL
B2: VP16-muNS (other)
chain: MASTKWGDKPMSVSMSHDGSSIRSAASQFLSGPLFHSTPIPPQRKTVLLKFMIGDELVTVQGALAPFDEYWYDNQPLLAQAVEMLASADRLRQFEHYEKFLLKKGHQITEIMNRLRLFFTDVLKVKMEADALPALAQYLMVGTLEAVSTADSPDACVPVTSKILAKQQTIAKSPGRLDEEEYNVIRSRFLTHEVFDLTSDLPGVQPFMDMYYATVPRADSTGWCVYRRKGLLIHAPDEQFSDLTIFSTRLTASRELQLVAGDVAVACFDLMDVSDIAPSHHASVQEERTLGTSRYSNVTANDHPLVFFSPSALRWAIDHACTDSLVSTRNIRVCVGIDPLVTRWTRDGVQEAAILMDDKLPSAGRARMALRTLLLARRSPMTSFLLGALKQSGGQLMEHYRCDAANRYGSPTVPVSHSPPCSKCPELKEQITKLSSSPLPKIDSNVGPAALLSKIADLQRANRELSLKLVDVQPAREDHLLAYLNEHVCVNAKDHEKGLLSRCNVSGDSISSILGQRVKNRERFETRLRHEASAEWEPRVEALNQELAKARVEQQDMMTQSLQYLNERDELLHEVDELKRELTTLRSANVRLNADNHRMSRATRVGDAFVSDVEPLPSGIPGESKPSMEELVDDL
notes: not shown: limits and or

Assays:
GFP/muNS (605-635) = GFP/muNS (605-635) (Aequorea victoria; avian Orthoreovirus …, UniProt P42212 1-238 = GFP); assay: co-expression with muNS-Mi in CEF cells, GFP fluorescence microscopy
human wild type p53 [1] = biological target: T1, human wild type p53 (human, UniProt P04637 1-393); assay: co-expression in Cos-7 cells, immunofluorescence
T1 construct: whole, on cells; also called untagged p53; Intercoil-free p53

human wild type p53 [2] = biological target: T1, human wild type p53; assay: co-expression in Cos-7 cells, immunofluorescence (nuclear inclusions)

| Binder | binding result (GFP/muNS (605-635)) | binding result (human wild type p53 [1]) | binding result (human wild type p53 [2]) |
| --- | --- | --- | --- |
| B1 | no binding | no binding | – |
| B2 | – | – | no binding |
